Pooled drug test results. Numbers come from NIAID ChemDB, via PubChem.

Shared fields: whole-cell or culture tests

ECn: concentration that inhibits the pathogen or its effect by n%.

compound | agent | strain or isolate | tested at | cell line | mutations | measure | read by | result
Cc1ccnc2c1NC(=O)c1cccnc1N2C1CC1 | HIV-1 | - | - | MT-4 | RT-K70R L100I | EC95 | - | 1.5 µM
CCC(NC)C1CCN(c2c(F)cn3c(=O)c(C(=O)O)cc(C4CC4)c3c2C)C1 | Enterococcus faecium | ATCC 8043 | - | - | - | MIC | - | 0.05 µg/mL
COc1c(O)cc2oc(-c3ccccc3)cc(=O)c2c1O | Saccharomyces cerevisiae | - | - | - | - | MIC | - | 250 µg/mL
CCCC(=O)O[C@H]1CN2CC[C@H](O)[C@@H]2[C@@H](O)[C@@H]1O | Bovine viral diarrhea virus | - | - | MDBK | - | EC50 | plaque count | 16.25 µM
CO[C@H]1[C@@H](OC(=O)/C=C/C=C/C=C/C=C/C(=O)O)CC[C@@]2(CO2)[C@@H]1[C@@]1(C)O[C@@H]1CC=C(C)C | Herpes simplex virus 1 | KOS | - | HeLa | - | EC50 | cytopathic effect | >200 µg/mL
Nc1nc2c(ncn2[C@H]2C[C@H](F)[C@@H](COP(=O)(O)OP(=O)(O)OP(=O)(O)O)O2)c(=O)[nH]1 | Duck hepatitis B virus | - | - | HEPG | - | EC50 | ELISA | 0.1 µM
CC[C@@]1(O)C(=O)OCc2c1cc1n(c2=O)Cc2cc3c(N)c4c(cc3nc2-1)OCO4 | Trypanosoma brucei | - | - | - | - | EC50 | - | 0.074 µM
CC[C@H](N)C1CCN(c2c(F)cn3c(=O)c(C(=O)O)cc(C4CC4)c3c2C)C1 | Streptococcus pyogenes | EES61 | - | - | - | MIC | - | 0.002 µg/mL
CC(=O)NC[C@H]1CN(c2ccc(N3CCN(C(=O)CO)CC3)c(F)c2)C(=O)O1 | Streptococcus pneumoniae | Penicillin-resistant | - | - | - | MIC90 | - | 0.25–0.5 µg/mL
Cc1c(N2C[C@H]3CCCC[C@@]3(CN)C2)c(F)cn2c(=O)c(C(=O)O)cc(C3CC3)c12 | Streptococcus pyogenes | EES61 | - | - | - | MIC | - | 0.005 µg/mL
Cc1c(N2CCC(C3(N)CCCCC3)C2)c(F)cn2c(=O)c(C(=O)O)cc(C3CC3)c12 | Enterococcus faecium | ATCC 8043 | - | - | - | MIC | - | 0.1 µg/mL
Nc1ncc2ncn(C3OC(C(NC(=O)C4CCCC4N)C(=O)O)CC(O)(C(O)CO)C3O)c2n1 | Herpes simplex virus 1 | KOS | - | HeLa | - | EC50 | cytopathic effect | >100 µg/mL
CCCCCCCCC[C@@H](O)[C@H](C)N | Candida spp. | MTCC 1962 | - | - | - | MIC | - | 9.9 µM
COc1ccc(OC)c(C=O)c1 | Aspergillus terreus | UAB698 | - | - | - | MIC | agar | 1000 µM
CCN1C[C@]2(COC)[C@H](O)CC(OC)[C@]34C1[C@H](CC23OC)[C@]1(OC(C)=O)[C@H]2[C@@H](OC(=O)c3ccccc3)[C@](O)(C[C@H]24)[C@@H](OC)[C@@H]1O | Herpes simplex virus 1 | KOS | - | HeLa | - | EC50 | cytopathic effect | >100 µg/mL
CC1=C(C2=NCCS2)O[C@@H]2O[C@]3(C)CC[C@H]4[C@H](C)CC[C@@H]1[C@@]24OO3 | Toxoplasma gondii | - | - | HFF | - | EC50 | β-galactosidase | 1.7 µM
C#C[C@]1(CO)O[C@@H](n2cnc3c(N)nc(F)nc32)CC1O | HIV-2 | ROD9 | - | MAGIC-5A | - | EC50 | β-galactosidase / absorbance | 0.00042 µM
CC1=C\[C@H](O)CC(=O)Cc2nc(co2)C(=O)N2CCC=C2C(=O)O[C@@H](C(C)C)[C@@H](C)/C=C/C(=O)NC\C=C\1 | Herpes simplex virus 1 | KOS | - | HeLa | - | EC50 | cytopathic effect | >200 µg/mL
NC(=O)c1ncn([C@@H]2O[C@H](CO)[C@@H](O)[C@H]2O)c1O | Respiratory syncytial virus | TYPE A/NS-100 | - | HeLa | - | EC50 | plaque count | 2.6 µg/mL
C=CC(C)(C)C1=Cc2cc3c(cc2OC1=C)OC(C(C)(C)OC(C)=O)C3 | Epstein-Barr virus | - | - | Akata-Bx1 | - | EC50 | PCR | 2.38 µM
COc1ccc(O)c(C=O)c1 | Aspergillus terreus | UAB680 | - | - | - | MIC | agar | 500 µM
C[C@@H](O)C1=C[C@@H](n2cnc3c(N)ncnc32)[C@H](O)[C@@H]1O | Parainfluenza virus | TYPE 3/HA-1 C243 | - | VERO | - | EC50 | plaque count | 0.16 µg/mL
COc1cccc(C=O)c1OC | Aspergillus terreus | UAB680 | - | - | - | MIC | agar | 2000 µM
CSCC[C@H](N)C1CCN(c2c(F)cn3c(=O)c(C(=O)O)cc(C4CC4)c3c2C)C1 | Streptococcus pyogenes | EES61 | - | - | - | MIC | - | 0.002 µg/mL
CC[C@@]1(O)C(=O)OCc2c1cc1n(c2=O)Cc2cc3ccccc3nc2-1 | Trypanosoma brucei | - | - | - | - | EC50 | - | 1.6 µM
Cc1c(N(C)C)c(F)cn2c(=O)c(C(=O)O)cc(C3CC3)c12 | Enterococcus faecium | ATCC 8043 | - | - | - | MIC | - | 0.2 µg/mL
O[C@H]1[C@H](O)[C@@H](O)CN2CC[C@H](O)[C@H]12 | Bovine viral diarrhea virus | - | - | MDBK | - | EC50 | plaque count | 216.6 µM
Cc1c(N2CC[C@H](C3(N)CC3)C2)c(F)cn2c(=O)c(C(=O)O)cc(C3CC3)c12 | Enterococcus faecium | ATCC 8043 | - | - | - | MIC | - | 0.2 µg/mL
CCNC(=O)C1=C(C)[C@@H]2CC[C@@H](C)[C@@H]3CC[C@]4(C)OO[C@@]23[C@H](O1)O4 | Toxoplasma gondii | - | - | HFF | - | EC50 | β-galactosidase | 4.4 µM
Cc1c(N2CCC(C(C)(C)N)C2)c(F)cn2c(=O)c(C(=O)O)cc(C3CC3)c12 | Enterococcus faecium | ATCC 8043 | - | - | - | MIC | - | 0.05 µg/mL
O=C(C=Cc1ccc(O)c(O)c1)O[C@@H]1C[C@](O)(C(=O)O)C[C@@H](O)[C@H]1O | Herpes simplex virus 1 | KOS | - | HeLa | - | EC50 | cytopathic effect | >200 µg/mL
CC[C@H](NC)C1CCN(c2c(F)cn3c(=O)c(C(=O)O)cc(C4CC4)c3c2C)C1 | Enterococcus faecium | ATCC 8043 | - | - | - | MIC | - | 0.2 µg/mL
C[C@@]1(F)[C@H](O)[C@@H](CO)O[C@H]1n1ccc(N)nc1=O | Bovine viral diarrhea virus | - | - | Huh7 | - | EC90 | replicon | >100 µM
Cc1c(N2CCC[C@H](N)C2)c(F)cn2c(=O)c(C(=O)O)cc(C3CC3)c12 | Enterococcus faecium | ATCC 8043 | - | - | - | MIC | - | 0.05 µg/mL
NC1[C@H]2CN(c3nc4c(cc3F)c(=O)c(C(=O)O)cn4-c3ccc(F)cc3F)C[C@@H]12 | Enterococcus faecium | 21 strains (vancomycin-susceptible) | - | - | - | MIC | - | 1 µg/mL
Nc1ncnc2c1ncn2C[C@H](O)CO | Vesicular stomatitis virus | - | - | ESM | - | EC50 | cytopathic effect | 15 µg/mL
C#CC[C@@H](C(=O)N[C@H](/C=C/C(=O)OCC)C[C@@H]1CCNC1=O)n1cccc(NC(=O)c2cc(C)on2)c1=O | Rhinovirus | Serotype 11 | - | H1-HELA | - | EC50 | cytopathic effect / XTT | 0.033 µM
COc1cc2oc(-c3ccccc3)c(OC)c(=O)c2c(OC)c1OC | Saccharomyces cerevisiae | - | - | - | - | MIC | - | 1000 µg/mL
NC(=O)c1nc(F)c[nH]c1=O | Influenza A virus | H1N1 Yamagata/120/86 | - | MDCK | - | EC50 | plaque count | 0.12 µg/mL
CO[C@@H]1[C@@H](O[C@@H]2O[C@H](C)[C@@H](O[C@H]3C[C@@](C)(O)[C@@H](O)[C@H](C)O3)[C@H](N(C)C)[C@H]2O)[C@@H](CC=O)C[C@@H](C)[C@@H](O[C@H]2CC[C@H](N(C)C)[C@H](C)O2)/C=C/C=C/C[C@@H](C)OC(=O)C[C@H]1O | Toxoplasma gondii | - | 2 µg/mL | - | - | inhibition | - | 58%
COC[C@H](N)C1CCN(c2c(F)cn3c(=O)c(C(=O)O)cc(C4CC4)c3c2C)C1 | Streptococcus pyogenes | EES61 | - | - | - | MIC | - | 0.002 µg/mL

A second listing of 5 rows from above:

compound	agent	strain or isolate	tested at	cell line	mutations	measure	read by	result
O=C(C=Cc1ccc(O)c(O)c1)O[C@@H]1C[C@](O)(C(=O)O)C[C@@H](O)[C@H]1O	Herpes simplex virus 1	KOS	-	HeLa	-	EC50	cytopathic effect	>200 µg/mL
Cc1c(N2CCC[C@H](N)C2)c(F)cn2c(=O)c(C(=O)O)cc(C3CC3)c12	Enterococcus faecium	ATCC 8043	-	-	-	MIC	-	0.05 µg/mL
Nc1ncc2ncn(C3OC(C(NC(=O)C4CCCC4N)C(=O)O)CC(O)(C(O)CO)C3O)c2n1	Herpes simplex virus 1	KOS	-	HeLa	-	EC50	cytopathic effect	>100 µg/mL
CC[C@H](NC)C1CCN(c2c(F)cn3c(=O)c(C(=O)O)cc(C4CC4)c3c2C)C1	Enterococcus faecium	ATCC 8043	-	-	-	MIC	-	0.2 µg/mL
NC(=O)c1nc(F)c[nH]c1=O	Influenza A virus	H1N1 Yamagata/120/86	-	MDCK	-	EC50	plaque count	0.12 µg/mL

Two numbers with a dash give a range or band. Lines come from different laboratories, so protocols vary. A number after MIC or MFC names an inhibition level or a share of isolates. Blank or dashed fields: not listed here. Percent inhibition refers to the dose given; in toxicity tests it is the harm to the cells.